Anti-infective test results gathered from many reports (values: NIAID ChemDB through PubChem).

All rows: growth or infection tests; species: HIV-1; cell line: MT-4; measure: EC50

Blank or dashed fields: not listed here. ECn is the concentration giving n% inhibition of infection, replication or growth. Neighbouring rows are from separate reports. a–b is a range or a potency band.

{"compound": "CC(C)C(NS(=O)(=O)c1ccc(Cl)cc1)c1nnc(Nc2ccc(Br)cc2)s1", "strain": "IIIB", "read by": "MTT", "result": ">4.98 µM"}
{"compound": "C#CCOCn1c(Cc2cc(C(F)(F)F)cc(C(F)(F)F)c2)c(CC)c(=O)[nH]c1=O", "strain": "N119 (Y181C)", "read by": "MTT", "result": "100 µM"}
{"compound": "CCCCOP(=O)(CN[C@@H](Cc1ccccc1)[C@H](O)CN(CC(C)C)S(=O)(=O)c1ccc(OC)cc1)OCCCC", "strain": "IIIB", "read by": "MTT", "result": ">13.08 µg/mL"}
{"compound": "COc1ccc(Nc2nnc(C(NS(=O)(=O)c3ccc(Br)cc3)C(C)C)s2)cc1", "strain": "IIIB", "read by": "MTT", "result": ">9.57 µM"}
{"compound": "O=C(O)/C(O)=C/c1cccc(OCc2ccccc2)n1", "strain": "IIIB", "read by": "cytopathic effect / MTT", "result": ">74 µM"}
{"compound": "CC1([C@@H]2CC[C@]3(NC[C@@H](CO)N4CCS(=O)(=O)CC4)CC[C@]4(C)[C@H](CC[C@@H]5[C@@]6(C)CC[C@H](OC(=O)[C@H]7C[C@@H](C(=O)O)C7(C)C)C(C)(C)[C@@H]6CC[C@]54C)[C@@H]23)CC1", "strain": "NL4-3", "changes": "V7A", "read by": "p24 / ELISA", "result": "<0.05 µM"}
{"compound": "C=CCOCn1c(Cc2cccc(C(F)(F)F)c2)c(C(C)C)c(=O)[nH]c1=O", "strain": "EFV-resistant (K103R V179D P225H)", "read by": "MTT", "result": ">39 µM"}
{"compound": "CC(C)CN(C[C@@H](O)[C@H](Cc1ccccc1)NC(=O)O[C@H]1CCOC1)S(=O)(=O)c1ccc(N)cc1", "strain": "T14434", "changes": "R41T K70E V77I/V", "read by": "reporter gene", "result": "47 nM"}
{"compound": "Cc1ccc(S(=O)(=O)NC(Cc2ccccc2)c2nnc(Nc3ccc(F)cc3)s2)cc1", "strain": "IIIB", "read by": "MTT", "result": ">2.06 µM"}
{"compound": "C=C(C)[C@@H]1CC[C@]2(NC[C@H]([C@@H](C)OC(=O)COCCOC)N3CCS(=O)(=O)CC3)CC[C@]3(C)[C@H](CC[C@@H]4[C@@]5(C)CC[C@H](OC(=O)[C@H]6C[C@@H](C(=O)O)C6(C)C)C(C)(C)[C@@H]5CC[C@]43C)[C@@H]12", "strain": "NL4-3", "read by": "p24 / ELISA", "result": "<0.01 µM"}
{"compound": "Cc1cc(/C(O)=C/c2cc(CCc3ccccc3)ncn2)no1", "strain": "IIIB", "read by": "cytopathic effect / MTT", "result": "23 µM"}
{"compound": "Cc1ccc(S(=O)(=O)NC(c2nnc(Nc3ccc(F)cc3)s2)C(C)C)cc1", "strain": "IIIB", "read by": "MTT", "result": ">9.5 µM"}
{"compound": "CC1([C@@H]2CC[C@]3(NC[C@H](CF)N4CCS(=O)(=O)CC4)CC[C@]4(C)[C@H](CC[C@@H]5[C@@]6(C)CC[C@H](OC(=O)[C@H]7C[C@@H](C(=O)O)C7(C)C)C(C)(C)[C@@H]6CC[C@]54C)[C@@H]23)CC1", "strain": "NL4-3", "read by": "p24 / ELISA", "result": "<0.01 µM"}
{"compound": "COc1ccc(Nc2nnc(C(Cc3ccccc3)NS(=O)(=O)c3ccc(OC)cc3)s2)cc1", "strain": "IIIB", "read by": "MTT", "result": ">93.25 µM"}
{"compound": "O=c1cc(/C(O)=C/c2cc(CCc3ccccc3)ncn2)o[nH]1", "strain": "IIIB", "read by": "cytopathic effect / MTT", "result": ">65 µM"}
{"compound": "COCCOCC(=O)O[C@H](C)[C@@H](CN[C@]12CC[C@@H](C3(C)CC3)[C@@H]1[C@H]1CC[C@@H]3[C@@]4(C)CC[C@H](OC(=O)[C@H]5C[C@@H](C(=O)O)C5(C)C)C(C)(C)[C@@H]4CC[C@@]3(C)[C@]1(C)CC2)N1CCS(=O)(=O)CC1", "strain": "NL4-3", "changes": "V7A", "read by": "p24 / ELISA", "result": "<0.05 µM"}
{"compound": "O=C(O)/C(O)=C/c1cc(OCc2ccccc2)ccn1", "strain": "IIIB", "read by": "cytopathic effect / MTT", "result": ">13.8 µM"}
{"compound": "CC(C)CCC[C@@H](C)[C@H]1CC[C@H]2[C@@H]3CC[C@H]4C[C@@H](CCC=C(c5cc(Cl)c(O)c(C(=O)O)c5)c5cc(Cl)c(O)c(C(=O)O)c5)CC[C@]4(C)[C@H]3CC[C@]12C", "strain": "IIIB", "read by": "cytopathic effect / MTT", "result": "3 µM"}
{"compound": "Cc1cn([C@H]2C[C@H](N=[N+]=[N-])[C@@H](CO)O2)c(=O)[nH]c1=O", "strain": "IIIB", "read by": "MTT", "result": "0.007 µM"}
{"compound": "CC(C)S(=O)(=O)N1CCN([C@H](CN[C@]23CC[C@@H](C4(C)CC4)[C@@H]2[C@H]2CC[C@@H]4[C@@]5(C)CC[C@H](OC(=O)[C@H]6C[C@@H](C(=O)O)C6(C)C)C(C)(C)[C@@H]5CC[C@@]4(C)[C@]2(C)CC3)[C@@H](C)O)CC1", "strain": "NL4-3", "read by": "p24 / ELISA", "result": "<0.01 µM"}
{"compound": "CCOCn1c(Cc2cc(C(F)(F)F)cc(C(F)(F)F)c2)c(C(C)C)c(=O)[nH]c1=O", "strain": "N119 (Y181C)", "read by": "MTT", "result": "17 µM"}
{"compound": "O/C(=C\\c1cc(CCc2ccccc2)ncn1)c1cnccn1", "strain": "IIIB", "read by": "cytopathic effect / MTT", "result": ">66 µM"}
{"compound": "COc1ccc(S(=O)(=O)NC(Cc2ccccc2)c2nnc(Nc3ccc(Br)cc3)s2)cc1", "strain": "IIIB", "read by": "MTT", "result": ">1.98 µM"}
{"compound": "CC1([C@@H]2CC[C@]3(NC[C@H](CO)N4CCS(=O)(=O)CC4)CC[C@]4(C)[C@H](CC[C@@H]5[C@@]6(C)CC[C@H](OC(=O)[C@H]7C[C@@H](C(=O)O)C7(C)C)C(C)(C)[C@@H]6CC[C@]54C)[C@@H]23)CC1", "strain": "NL4-3", "changes": "V7A", "read by": "p24 / ELISA", "result": "<0.05 µM"}
{"compound": "C#CCOCn1c(Cc2cc(F)ccc2F)c(CC)c(=O)[nH]c1=O", "strain": "A17", "changes": "K103N + Y181C", "read by": "MTT", "result": "53 µM"}
{"compound": "CC(C)C(NS(=O)(=O)c1ccc(Cl)cc1)c1nnc(Nc2ccc(F)cc2)s1", "strain": "IIIB", "read by": "MTT", "result": ">8.81 µM"}
{"compound": "O=C(O)/C(O)=C/c1cc(Oc2ccccc2)ncn1", "strain": "IIIB", "read by": "cytopathic effect / MTT", "result": ">77 µM"}
{"compound": "CC1([C@@H]2CC[C@]3(NC[C@@H](CF)N4CCS(=O)(=O)CC4)CC[C@]4(C)[C@H](CC[C@@H]5[C@@]6(C)CC[C@H](OC(=O)[C@H]7C[C@@H](C(=O)O)C7(C)C)C(C)(C)[C@@H]6CC[C@]54C)[C@@H]23)CC1", "strain": "NL4-3", "changes": "V7A", "read by": "p24 / ELISA", "result": "0.0505–0.1 µM"}
{"compound": "C#CCOCn1c(Cc2cccc(C(F)(F)F)c2)c(C(C)C)c(=O)[nH]c1=O", "strain": "A17", "changes": "K103N + Y181C", "read by": "MTT", "result": "11 µM"}
{"compound": "Cc1ccc(S(=O)(=O)NC(C)c2nnc(Nc3ccc(F)cc3)s2)cc1", "strain": "IIIB", "read by": "MTT", "result": ">71.85 µM"}
{"compound": "O/C(=C\\c1cc(CCc2ccccc2)ncn1)c1ncccn1", "strain": "IIIB", "read by": "cytopathic effect / MTT", "result": ">12.5 µg/mL"}

For reference, 4 entries again:

| compound | strain | changes | read by | result |
|---|---|---|---|---|
| C#CCOCn1c(Cc2cc(F)ccc2F)c(CC)c(=O)[nH]c1=O | A17 | K103N + Y181C | MTT | 53 µM |
| CC1([C@@H]2CC[C@]3(NC[C@@H](CF)N4CCS(=O)(=O)CC4)CC[C@]4(C)[C@H](CC[C@@H]5[C@@]6(C)CC[C@H](OC(=O)[C@H]7C[C@@H](C(=O)O)C7(C)C)C(C)(C)[C@@H]6CC[C@]54C)[C@@H]23)CC1 | NL4-3 | V7A | p24 / ELISA | 0.0505–0.1 µM |
| C=C(C)[C@@H]1CC[C@]2(NC[C@H]([C@@H](C)OC(=O)COCCOC)N3CCS(=O)(=O)CC3)CC[C@]3(C)[C@H](CC[C@@H]4[C@@]5(C)CC[C@H](OC(=O)[C@H]6C[C@@H](C(=O)O)C6(C)C)C(C)(C)[C@@H]5CC[C@]43C)[C@@H]12 | NL4-3 |  | p24 / ELISA | <0.01 µM |
| COc1ccc(S(=O)(=O)NC(Cc2ccccc2)c2nnc(Nc3ccc(Br)cc3)s2)cc1 | IIIB |  | MTT | >1.98 µM |